Anti-infective test results gathered from many reports (values: NIAID ChemDB through PubChem).

Common to all: enzyme or target tests; agent: HIV-1; protein: Protease; method: fluorescence; read-out: inhibition

Percent inhibition refers to the dose given; in toxicity tests it is the harm to the cells. Lines come from different laboratories, so protocols vary.

| compound | tested at | value |
|---|---|---|
| CC(=O)N[C@@H](Cc1ccccc1)C(O)[C@H](Cc1ccccc1)NC(C)=O | 10 µM | 12% |
| O=c1c(O)c(-c2ccc(O)cc2O)oc2cc(O)cc(O)c12 | 50 µg/mL | 68.8% |
| CC(C)[C@H](NC(=O)OCc1ccccn1)C(=O)N[C@@H](Cc1ccccc1)[C@H](O)[C@H](O)[C@H](Cc1ccccc1)NC(=O)[C@@H](NC(=O)OCc1ccccn1)C(C)C | 0.001 µM | 78% |
| Cc1cc(CN2C(=O)N(Cc3ccc(O)c(C)c3)N(Cc3ccccc3)C[C@@H](O)[C@H]2Cc2ccccc2)ccc1O | 0.0005 µM | 61.4% |
| O=C(N[C@@H](Cc1ccccc1)[C@H](Cc1ccccc1)n1cc(CN2CCN(C(=O)OCc3ccccc3)CC2)nn1)OC1CCCC1 | 5 µM | 33% |
| C[C@@H]1O[C@@H](OC[C@H]2O[C@@H](Oc3c(-c4ccc(O)cc4)oc4cc(O[C@@H]5O[C@@H](C)[C@H](O)[C@@H](O)[C@H]5O)cc(O)c4c3=O)[C@H](O)[C@@H](O)[C@H]2O)[C@H](O)[C@H](O)[C@H]1O | 50 µg/mL | 69.8% |
| CC[C@H](C)[C@H](NC(=O)OCc1ccccc1)C(=O)N[C@@H](Cc1ccccc1)C(O)[C@H](Cc1ccccc1)NC(=O)OC(C)(C)C | 0.01 µM | 36% |
| COc1ccc(-c2cc(=O)c3c(O)cc(OC4OC(COC5OC(C)C(O)C(O)C5O)C(O)C(O)C4O)cc3o2)cc1 | 50 µg/mL | 60% |
| COc1ccc(CN2C[C@@H](O)[C@@H](Cc3ccccc3)N(Cc3cccc(N)c3)C(=O)N2Cc2cccc(N)c2)cc1 | 0.0005 µM | 70.7% |
| C=C1C(C(C)C2CC=C(C)C(=O)O2)=CC[C@]2(C)C1C[C@]1(O)C=C3C=CC(=O)OC(C)(C)C3CCC21 | 10 ± 0.7 µg/mL | 18.1% |
| CC(C)[C@H](NC(=O)NCc1ccccc1)C(=O)N[C@@H](Cc1ccccc1)C(O)[C@H](Cc1ccccc1)NC(=O)[C@@H](NC(=O)NCc1ccccc1)C(C)C | 0.005 µM | 78% |
| C=C(C)[C@@H]1CCC2[C@]3(CC[C@]4(C)[C@@H]([C@H](C)CC/C=C(/C)C(=O)O)CC[C@@]24C)C[C@]13CCC(=O)O | 10 ± 6.1 µg/mL | 11.6% |
| O=C1OC2[C@@H](CO)O[C@@H](OC(=O)c3cc(O)c(O)c(O)c3)[C@H](OC(=O)c3cc(O)c(O)c4c3[C@@H]3C1=CC(=O)C(O)(O)C3(O)O4)[C@H]2O | 50 µg/mL | 42.7% |
| CC(C)[C@H](NC(=O)OCc1ccccc1)C(=O)N[C@@H](CSc1ccccn1)[C@@H](O)[C@H](O)[C@H](CSc1ccccn1)NC(=O)[C@@H](NC(=O)OCc1ccccc1)C(C)C | 0.01 µM | 30% |
| COc1ccc(C2Oc3cc(O)cc(O)c3C(=O)C2O)cc1O | 50 µg/mL | 45.6% |
| CC(C)C(C(=O)N[C@@H](Cc1ccccc1)[C@@H](O)[C@H](O)[C@H](Cc1ccccc1)NC(=O)C(C(C)C)N(C)C)N(C)C | 0.005 µM | 73% |
| CC1=CCC(C(C)C2=CC[C@]3(C)C(=C2C)C[C@]2(O)C=C4C=CC(=O)OC(C)(C)C4[C@H](O)CC23)OC1=O | 10 ± 1.7 µg/mL | 12.3% |
| O=C1N(Cc2ccc(O)c(F)c2)[C@H](Cc2ccccc2)[C@H](O)CN(Cc2ccccc2)N1Cc1ccc(O)c(F)c1 | 0.0005 µM | 68% |
| CC1=CCC(C(C)C2=C(C)C3C[C@]4(O)C=C5C=CC(=O)OC(C)(C)C5[C@H](O)CC4[C@]3(C)C=C2)OC1=O | 10 ± 11.9 µg/mL | 11.8% |
| CC(C)[C@H](NC(=O)N(C)Cc1ccccn1)C(=O)N[C@@H](Cc1ccccc1)[C@H](O)[C@H](O)[C@H](Cc1ccccc1)NC(=O)[C@@H](NC(=O)N(C)Cc1ccccn1)C(C)C | 0.001 µM | 62% |
| COc1cc(CN2C(=O)N(Cc3ccc(O)c(OC)c3)N(Cc3ccccc3)C[C@@H](O)[C@H]2Cc2ccccc2)ccc1O | 0.0005 µM | 81% |
| CC(C)[C@H](NC(=O)OCCN1CCOCC1)C(=O)N[C@@H](Cc1ccccc1)[C@H](O)[C@H](O)[C@H](Cc1ccccc1)NC(=O)[C@@H](NC(=O)OCCN1CCOCC1)C(C)C | 0.01 µM | 33% |
| CC[C@H](C)[C@H](NC(=O)[C@H](CCC(N)=O)NC(=O)CCCOc1ccc2ccc(OCCCC(=O)N[C@H](C(=O)N[C@@H](CC(C)C)C(=O)N[C@H](C(=O)OC)C(C)C)C(C)C)nc2c1)C(=O)N[C@H](C(N)=O)[C@@H](C)O | 5.7 µM | 30% |
| CC(C)[C@H](NC(=O)OCc1nccs1)C(=O)N[C@@H](Cc1ccccc1)C(O)[C@H](Cc1ccccc1)NC(=O)[C@@H](NC(=O)OCc1nccs1)C(C)C | 0.01 µM | 63% |
| O=c1c(O[C@@H]2O[C@H](CO)[C@@H](O)[C@H](O)[C@H]2O)c(-c2ccc(O)c(O)c2)oc2cc(O)cc(O)c12 | 50 µg/mL | 64.4% |